Reference: patent US8383617B2, “Treatment of protein aggregation diseases” (priority 2007, dated 2013)

System: ScGT1 cells
Experiment: Prion content of scrapie-infected cell line (Seprion capture assay)
Format: cell-based, mouse
Details: 5 μM, first passage after one week exposure, listed as Fluphenazine (repeat)

## OCCN1CCN(CCCN2c3ccccc3Sc3ccc(C(F)(F)F)cc32)CC1 [Fluphenazine, fluphenazine]
  prion content signal, drug tested singly: 0.687
